A mixed list of measured activities; the numbers were collected in NIAID ChemDB.

Common to all: whole-cell or culture tests; species: Mycobacterium tuberculosis

An empty or dashed field is not shown. ECn is the concentration giving n% inhibition of infection, replication or growth. MIC bound: limit read from a one-dose screen. Two numbers with a dash give a range or band. For "inactive" no cut-off is given. Percent inhibition refers to the dose given; in toxicity tests it is the harm to the cells. Neighbouring rows are from separate reports. MIC50, MIC90 and the like: level of inhibition, or share of isolates inhibited.

SMILES	setting	strain	cells	method	read-out	dose	result
N/C(=N\N=C\c1ccc([N+](=O)[O-])cc1)c1ccccn1	-	H37Rv	-	-	MIC	-	>256 µg/mL
CCn1c(SCC(=O)c2ccccc2)nnc1-c1ccncc1	-	H37Rv	-	-	MIC	-	>6.25 µg/mL
Cc1cc(C)c2c(=O)n(CC(O)CN3CCN(c4ccccc4)CC3)sc2n1	-	H37Rv	-	BACTEC	EC50	-	>12.5 µg/mL
CCOP(=O)(CC(=O)C1=C(O)C(CCCNC(=O)OC(C)(C)C)N(Cc2ccc(OC)c(OC)c2)C1=O)OCC	-	H37Rv	-	resazurin	inhibition	6.25 µg/mL	-3%
Fc1cc(Nc2nnc(-c3ccncc3)o2)ccc1Br	21 d	My 331/88	-	broth dilution	MIC100	-	>125 µM
CO/N=C1\C[C@@H](C)O[C@@H](O[C@@H]2[C@@H](C)[C@H](O[C@H]3CC(C)N(C)C[C@H](C)O3)[C@@H](C)C(=O)O[C@H]([C@@H](C)CO[C@@H]3O[C@H](C)[C@@H](O)[C@@H](OC)[C@H]3OC)[C@H](C)[C@@H](OC(=O)CC(C)C)[C@@H](C)C(=O)[C@@](C)(OC(=O)N3CCOCC3)C[C@@H]2C)[C@@H]1O	-	H37Rv	-	resazurin	MIC	-	1.11 µM
Cc1ccc(NC(=O)N2CCCCC2)cc1[N+](=O)[O-]	-	H37Rv	-	BACTEC	inhibition	12.5 µg/mL	74%
CC(=O)OC[C@@H](OC(C)=O)[C@H](/C=C/CC[N+](=O)[O-])OC(C)=O	-	H37Rv	-	agar	inhibition	25 µg/mL	100%
CCn1cc(C(=O)O)c(=O)c2cc(F)c(N3CCNCC3)cc21	-	21 strains	-	-	MIC90	-	8 µg/mL
CN[C@@H]1[C@H](O[C@H]2[C@H](O[C@H]3[C@H](O)[C@@H](O)[C@H](N=C(N)N)[C@@H](O)[C@@H]3N=C(N)N)O[C@@H](C)[C@]2(O)C=O)O[C@@H](CO)[C@H](O)[C@H]1O	-	H37Ra	-	-	MIC	-	1.5 µg/mL
CC[C@H](CC[C@@H](C)[C@H]1CC[C@H]2[C@@H]3CC=C4C[C@@H](O)CC[C@]4(C)[C@H]3CC[C@]12C)C(C)C	-	H37Rv	-	-	MIC	-	32.8 µg/mL
CC(=O)OC[C@@H](OC(C)=O)[C@H](/C=C/CC(C)[N+](=O)[O-])OC(C)=O	-	H37Rv	-	agar	inhibition	12.5 µg/mL	100%
O=C(NNC(=O)c1ccncc1)Nc1ccc(C(F)(F)F)cc1	14 d	My 331/88	-	broth dilution	MIC100	-	62.5 µM
CC(=O)NC(C)C(CC[C@H](OC(C)=O)[C@@H](COC(C)=O)OC(C)=O)OC(C)=O	-	H37Rv	-	agar	inhibition	25 µg/mL	inactive
Nc1cnccc1NCCN1CCN(c2ccccc2)CC1	-	H37Rv	-	resazurin	inhibition	6.25 µg/mL	44%
COc1ccc(Nc2nnc(-c3ccncc3)o2)cc1	14 d	My 331/88	-	broth dilution	MIC100	-	>125 µM
CC(=O)NCCCC[C@H](OC(C)=O)[C@@H](COC(C)=O)OC(C)=O	-	H37Rv	-	agar	inhibition	12.5 µg/mL	100%
COc1ccccc1CSc1nc(=O)[nH]c2nc[nH]c12	-	H37Rv	-	-	MIC90	-	>6.25 µg/mL
CCCCc1nc(Cl)c(/C=N/NC(N)=S)n1CCCN1CCN(c2ccc([N+](=O)[O-])cc2)CC1	-	H37Rv	-	agar	MIC	-	50 µg/mL
COc1cc(/C=N/N=C(\N)c2ccccn2)cc(OC)c1OC	-	H37Rv	-	-	MIC	-	>256 µg/mL
O=C1c2ccccc2C(=O)c2sc(Nc3ccc([N+](=O)[O-])cc3)nc21	-	H37Rv	-	BACTEC	MIC	-	1.6 µg/mL
COc1cccc(CSc2ncccn2)c1	-	H37Rv	-	-	inhibition	6.25 µg/mL	0%
CC(=O)NCCCC[C@@H](OC(C)=O)[C@@H](COC(C)=O)OC(C)=O	-	H37Rv	-	agar	inhibition	12.5 µg/mL	100%
CCN(CC)C(=O)COc1cc2c(O)c3c(O)c(C)c4c(c13)C(=O)[C@@](C)(O/C=C/[C@H](OC)[C@@H](C)[C@@H](OC(C)=O)[C@H](C)[C@H](O)[C@H](C)[C@@H](O)[C@@H](C)/C=C/C=C(/C)C(=O)N2)O4	-	H37Rv	-	-	MIC	-	0.2 µg/mL
O[C@H](c1cc(C(F)(F)F)nc2c(C(F)(F)F)cccc12)[C@@H]1CCCCN1	-	H37Rv	-	-	MIC	-	8–16 µg/mL
O=C(Nc1ccc(Cl)cc1)Nc1ccc(Cl)c(C(F)(F)F)c1	-	H37Rv	-	resazurin	MIC	-	12.5 µg/mL
N/C(=N/N=C/c1cccc(F)c1)c1ccccn1	-	H37Rv	-	-	MIC	-	128 µg/mL
Cc1cc(C)c2c(=O)n(CC(O)CN3CCN(c4ncccn4)CC3)sc2n1	-	H37Rv	-	BACTEC	inhibition	12.5 µg/mL	4%
NC(=O)c1nc(-c2ccccc2)c(-c2ccccc2)[nH]c1=O	-	H37Rv	-	BACTEC	MIC	-	≥12.5 µg/mL
COc1ccc(CSc2ncnc3nc[nH]c23)cc1	-	H37Rv	-	-	MIC90	-	>6.25 µg/mL
Cc1nc2c([N+](=O)[O-])c(N3CCCCC3)c([N+](=O)[O-])cc2[nH]1	-	H37Rv	-	resazurin	inhibition	6.25 µg/mL	1%
C=C[C@](C)(Cl)[C@@H](Br)/C=C/[C@](C)(Cl)CBr	-	H37Rv	-	-	MIC	-	3.13 µg/mL
CCc1nc2ncc(C)cn2c1C(=O)NCc1ccc(N2CCN(S(=O)(=O)C(F)(F)F)C(OC)=N2)c(F)c1	-	-	-	GFP	EC50	-	0.00089 µM
CCCN(CCC)N=Nc1c(C(N)=O)n[nH]c1-c1cc2ccccc2o1	-	H37Rv	-	BACTEC	MIC bound	-	>12.5 µg/mL
O=C(NNC(=O)c1ccncc1)Nc1ccc(Cl)c(C(F)(F)F)c1	21 d	My 331/88	-	broth dilution	MIC100	-	32 µM
c1ccc(N=Nc2ccc(NCCCN3CCCCC3)c3c2CCCC3)cc1	-	H37Rv	-	-	MIC	-	≤0.1 µg/mL
CCN1C[C@H](C)O[C@@H](O[C@H]2[C@H](C)[C@@H](O[C@@H]3O[C@H](C)C/C(=C\C#N)[C@H]3O)[C@@H](C)C[C@](C)(OC(=O)N3C[C@@H](C)O[C@@H](C)C3)C(=O)[C@H](C)[C@H](OC(=O)CC(C)C)[C@@H](C)[C@@H]([C@@H](C)CO[C@@H]3O[C@H](C)[C@@H](O)[C@@H](OC)[C@H]3OC)OC(=O)[C@@H]2C)C[C@H]1C	-	H37Rv	-	resazurin	MIC	-	0.703 µM
NC(=O)c1csc(N)n1	-	H37Rv	-	BACTEC	MIC bound	-	>12.5 µg/mL
CCCCCSc1ncnc2nc[nH]c12	-	H37Rv	-	-	MIC90	-	>6.25 µg/mL
CCCCCCCCCCCCCCCCC(=O)OC[C@H]1O[C@@H](O[C@H]2CC[C@@]3(C)C(=CC[C@H]4[C@@H]5CC[C@H]([C@H](C)CC[C@@H](CC)C(C)C)[C@@]5(C)CC[C@@H]43)C2)[C@H](O)[C@@H](O)[C@@H]1O	-	H37Rv	-	-	MIC	-	128.1 µg/mL
CO[C@H]1/C=C/O[C@@]2(C)Oc3c(C)c(O)c4c(O)c(c(/C=N/N5CCN(C)CC5)c(O)c4c3C2=O)NC(=O)/C(C)=C\C=C\[C@H](C)[C@H](O)[C@@H](C)[C@@H](O)[C@@H](C)[C@H](OC(C)=O)[C@@H]1C	-	H37Rv	-	resazurin	MIC	-	2 µM
CC(Cl)CC(=O)C(=O)Nc1nnc(-c2ccncc2)s1	-	H37Rv	-	visual reading	MIC	-	>200 µM
Cc1cc(C)c2c(=O)n(CN3CCN(C/C=C/c4ccccc4)CC3)sc2n1	-	H37Rv	-	BACTEC	inhibition	12.5 µg/mL	0%
C[C@@H]1O[C@@H](OC[C@H]2O[C@@H](Oc3c(-c4ccc(O)c(O)c4)oc4cc(O)cc(O)c4c3=O)[C@H](O)[C@@H](O)[C@@H]2O)[C@H](O)[C@H](O)[C@H]1O	-	H37Rv	-	-	MIC	-	>128 µg/mL
CCCCc1nc(Cl)c(/C=N/NC(N)=S)n1CCCN1CCN(c2ccccc2)CC1	-	H37Rv	-	agar	MIC	-	25 µg/mL
CC[C@H](CC[C@@H](C)[C@H]1CC[C@H]2[C@@H]3C[C@@H](O)C4=CC(=O)CC[C@]4(C)[C@H]3CC[C@]12C)C(C)C	-	H37Rv	-	-	MIC	-	4.2 µg/mL
COc1cccc(/C=N/N=C(\N)c2ccccn2)c1OC	-	H37Rv	-	-	MIC	-	256 µg/mL
COc1ccccc1Sc1ncccn1	-	H37Ra	-	-	MIC	-	>12.8 µg/mL
CCCCCCCNC(=O)NNC(=O)c1ccncc1	21 d	My 331/88	-	broth dilution	MIC100	-	32 µM
N/C(=N/N=C/c1ccccc1Cl)c1ccccn1	-	H37Rv	-	-	MIC	-	8 µg/mL
C=C(CC(=O)Nc1nc(C)c(C(=O)OC)s1)C(=O)O	-	H37Rv	-	resazurin	MIC bound	-	>6.25 µg/mL
Cc1ccc(Sc2ccncc2)cc1	-	H37Rv	-	-	MIC90	-	>6.25 µg/mL
NC[C@H]1O[C@H](O[C@H]2[C@H](O)[C@@H](O[C@H]3O[C@H](CO)[C@@H](O)[C@H](N)[C@H]3O)[C@H](N)C[C@@H]2N)[C@H](O)[C@@H](O)[C@@H]1O	-	H37Rv	-	resazurin	MIC	-	≤1.25 µg/mL
Cc1ccc(S(=O)(=O)NC(=O)Nc2c(-c3nc4ccccc4s3)[n+]([O-])c3ccccc3[n+]2[O-])cc1	-	H37Rv	-	BACTEC	MIC bound	-	>12.5 µg/mL
Cc1ccc(CSc2ncccn2)cc1	-	H37Rv	-	-	inhibition	6.25 µg/mL	0%
CC1=CC(=O)[C@@H](O)[C@]2(C)[C@H]3C4(O)OC[C@]35[C@H]([C@@H](C)[C@H]4O)[C@@H](O)C(=O)O[C@@H]5C[C@@H]12	-	H37Rv	-	BACTEC	MIC bound	-	>12.8 µg/mL
N[C@H]1CCN(c2nc3c(cc2F)c(=O)c(C(=O)O)cn3C2CC2)C1	inside macrophages	H37Rv	Macrophages	-	inhibition	0.5 µg/mL	65%
Nc1ccc2oc3cccnc3c2c1	-	H37Rv	-	BACTEC	MIC bound	-	>12.5 µg/mL
CCCCc1nc(Cl)c(/C=N/NC(N)=S)n1CCCN1CCN(c2ccc(C(F)(F)F)cc2)CC1	-	H37Rv	-	agar	MIC	-	12.5 µg/mL
Fc1ccc(-n2c(-c3ccncc3)n[nH]c2=S)cc1	-	H37Rv	-	-	MIC	-	>6.25 µg/mL
CC/C=c1\[nH]c(=O)/c(=C/c2ccc([N+](=O)[O-])cc2)[nH]c1=O	-	H37Rv	-	BACTEC	MIC bound	-	>12.5 µg/mL
Cc1cc(C)c2c(=O)n(CC(O)CN3CCN(c4cccc(C(F)(F)F)c4)CC3)sc2n1	-	H37Rv	-	BACTEC	inhibition	12.5 µg/mL	100%
COc1cc2c(c([N+](=O)[O-])c1)NC(=O)CCS2	-	H37Rv	-	BACTEC	inhibition	12.5 µg/mL	6%
O=C(Nc1nnc(-c2ccncc2)s1)C(=O)C(Cl)(Cl)Cl	-	H37Rv	-	visual reading	MIC	-	>200 µM
OCC[NH+]1CCN(C(=S)S)CC1	-	H37Rv	-	resazurin	MIC bound	-	>6.25 µg/mL
COc1ccccc1N1CCN(CCCCOc2nsc3nc(C)cc(C)c23)CC1	-	H37Rv	-	BACTEC	inhibition	12.5 µg/mL	10%
NNC(=O)c1ccncc1	-	H37Ra	-	-	MIC	-	0.05 µg/mL
CC(=O)NC(C)CCC[C@@H](OC(C)=O)[C@@H](COC(C)=O)OC(C)=O	-	H37Rv	-	agar	inhibition	25 µg/mL	100%
O=C(CSc1nnc(-c2ccncc2)n1-c1ccc(F)cc1)c1ccccc1	-	H37Rv	-	-	MIC	-	>6.25 µg/mL
N[C@@H]1CONC1=O	-	H37Ra	-	-	MIC	-	50 µg/mL
Cc1cc(C)c2c(c1)NP(=S)(c1ccccc1)N2	-	H37Rv	-	resazurin	inhibition	6.25 µg/mL	-5%
N/C(=N\N=C\c1ccc(Cl)c([N+](=O)[O-])c1)c1ccccn1	-	H37Rv	-	-	MIC	-	>256 µg/mL
CCCCCCCCCCCCCCCCCCCC[C@@H](O)C(=O)N[C@@H](CO)[C@H](O)[C@H](O)CCCCCCCCCCCCCC	-	H37Rv	-	-	MIC	-	127.8 µg/mL
CC(C)(C)c1ccc(NC(=O)NNC(=O)c2ccncc2)cc1	21 d	My 331/88	-	broth dilution	MIC100	-	16 µM
CC(=O)OC[C@@H](OC(C)=O)[C@H](/C=C/C=C/[N+](=O)[O-])OC(C)=O	-	H37Rv	-	agar	inhibition	12.5 µg/mL	inactive
Cc1ccc(N2P(N(C)C)N(c3ccc(C)cc3)P2(=O)N(C)C)cc1	-	H37Rv	-	BACTEC	MIC	-	≥12.5 µg/mL
COc1ccccc1N1CCN(CCCCn2sc3nc(C)cc(C)c3c2=O)CC1	-	H37Rv	-	BACTEC	EC50	-	<12.5 µg/mL
O=C1C(=O)c2ccccc2C(O)=C1CCCc1ccc(Oc2ccccc2)cc1	-	H37Rv	-	resazurin	inhibition	6.25 µg/mL	10%
O=C(NNC(=O)c1ccncc1)Nc1c(Cl)cc(Cl)cc1Cl	14 d	My 331/88	-	broth dilution	MIC100	-	4 µM
CC(=O)Oc1c(C)c2c(O)c3c1C1=C(OCOC1=C(C)C3=O)/C(C)=C\C(C)(O)C(O)C(C)C(O)C1C(=O)OC(C(C)/C=C\C=C(\C)C(=O)N2)C(C)C1O	-	H37Rv	-	BACTEC	MIC bound	-	>12.5 µg/mL
CSc1nc(Cl)c(C#N)c(-c2ccc(F)cc2F)n1	-	H37Rv	-	-	MIC	-	>25 µg/mL